The values below are quoted from earlier work in patent US20030003508A1 (priority 1999, published 2003).

The test system of the series is “R. felis”. To be noted: bacterium known as “R. felis” (Radulovic et al. 1995a; 1996); cited from earlier work.

On to `CC[C@H]1OC(=O)[C@H](C)[C@@H](O[C@H]2C[C@@](C)(OC)[C@@H](O)[C@H](C)O2)[C@H](C)[C@@H](O[C@@H]2O[C@H](C)C[C@H](N(C)C)[C@H]2O)[C@](C)(O)C[C@@H](C)C(=O)[C@H](C)[C@@H](O)[C@]1(C)O` [Erythromycin], for which the “resistance/sensitivity to the antibiotic” value is recorded as “sensitivity”.
